# Assay results taken from patent US12350260B2 (priority 2019, dated 2025).
# Several values for one entry are separate records, joined by “and”; a condition that tells them apart may be missing. Equal entries are not always repeated.
# How the values were obtained:
# [1] = test system: DRG neurons
# [2] = test system: primary human epidermal keratinocytes; conditions: 10 nM P-CTX-2 alone, 45 min after application
# [3] = test system: co-cultured DRG neurons and keratinocytes
# [4] = test system: PAR-2; conditions: 10 nM P-CTX-2, 20 min
# [5] = test system: Cat-S activity in sensory neurons; assay: Cathepsin S activity in supernatant of neurons alone; conditions: 10 nM P-CTX-2 for 90 minutes
# [6] = test system: Cat-S activity in co-culture supernatant; assay: Cathepsin S (Cat-S) activity in co-culture supernatants
# [7] = test system: Cat-S activity in keratinocytes; assay: Cathepsin S activity in supernatant of keratinocytes alone; conditions: 10 nM P-CTX-2 for 90 minutes
# [8] = test system: keratinocyte monocultures; assay: P-CTX-2-induced SP release in keratinocyte monocultures (EIA); conditions: 90-min exposure to 10 nM P-CTX-2 versus MeOH 0.05%
# [9] = test system: total cathepsin activity, including cathepsins B and L; assay: Total cathepsin activity in co-culture supernatants (substrate Z-Phe-Arg-AMC); conditions: in presence of PbTx-1 or P-CTX-2; data not shown
# [10] = test system: PAR-2; assay: Immunocytochemistry and confocal microscopy of PAR-2 internalization in human primary keratinocytes; conditions: 10 nM, 45 min at 37° C.
substance,measurement,setting,value
52-epi-54-deoxyCTX1-b,percentage of rat sensory neurons in which P-CTX-2 elicited a calcium response,"[1]; 10 nM P-CTX-2, 871 of 1720 analyzed cells",50.6±4.3% and 50.6%
same,DRG neurons responding with a second peak that displayed a plateau,[1]; 10 nM P-CTX-2 alone,67.8%
same,DRG neurons responding with the first peak that displayed the second peak,[1]; 10 nM P-CTX-2 alone,83.2%
same,average amplitude of the second peak (ΔF/F0),[1]; 10 nM P-CTX-2 alone,0.75±0.06
same,average amplitude value of the plateau (ΔF/F0),[1]; 10 nM P-CTX-2 alone,0.45±0.03
same,percentage of the studied population displaying the plateau,[1]; 10 nM P-CTX-2 alone,28.5±3.4%
same,percentage of the studied population displaying the second peak,[1]; 10 nM P-CTX-2 alone,42.1±4.7%
same,average amplitude of the P-CTX-2-elicited first peak (ΔF/F0),"[1]; 10 nM P-CTX-2 alone, responding cells",1.00±0.08
same,average amplitude of the calcium plateau (ΔF/F0),[2],0.87±0.1 and 0.86±0.10
same,SP levels in the optimized co-culture versus the prototypical model,[3]; 10 nM P-CTX-2,8 fold
same,SP release in the co-culture versus the sensory neuron monoculture,"[3]; 10 nM P-CTX-2, 90 min",6 fold
same,SP release in the co-culture relative to monocultures (normalized),"[3]; 10 nM P-CTX-2, 90 min, FIG. 4b",598.4±223.3%
same,P-CTX-2-induced SP levels released in the optimized co-culture,"[3]; 10 nM P-CTX-2, 90 min, new co-culture model",561.7 ± 97.4 pg/mL
same,P-CTX-2-induced SP levels released in the prototypical model (Le Garrec et al. 2016),"[3]; 10 nM P-CTX-2, 90 min, old co-culture model",67.9 ± 22.5 pg/mL
same,membrane expression of PAR-2,[4],42.3±7.9%
same,Slope,[5],192.41
same,% increased Cat-S activity,[5]; methanol control = 100,143%
same,"catalytic activity (reaction rate) of Cat-S in the co-culture supernatant, % of vehicle control","[6]; 10 nM, 90-min exposure",148.9±21.9%
same,% increased Cat-S activity,"[6]; co-culture, 10 nM P-CTX-2 for 90 minutes, methanol control = 100",192%
same,Slope,"[6]; co-culture, 10 nM P-CTX-2 for 90 minutes, slope defined in b141 as RFU per minute",126.61
same,Slope,[7],78.74
same,% increased Cat-S activity,[7]; methanol control = 100,1493%
same,SP release from keratinocyte monocultures,[8],did not release significant amounts of SP
same,global cathepsin activity,[9],not modified
same,PAR-2 internalization,[10],could internalize PAR-2
